Measured values published in patent publication US20160213647A1, “COMPOSITIONS AND METHODS FOR INHIBITING VIRAL INFECTION” (priority 2015, published 2016).
Read-outs that look alike come from different tables or passages of the source.

Key:
HIV-1 isolate A17 = conditions: A17 in PBMCs
[1] = test system: HIV-1 isolate NL4-3 gp41 (36G) V42T, N43K; conditions: N43K in PBMCs

With `COc1cc2c(cc1Cc1cccc(Cl)c1F)c(=O)c(C(=O)O)cn2[C@H](CO)C(C)C` [Elvitegravir] the “TI (TC50/TC50)” value (HIV-1 isolate NL4-3) was >1,935 and the “TI (TC50/TC50)” value (HIV-1 isolate 4736_4) was greater than 12.2.

With `Cc1cn([C@H]2C[C@H](N=[N+]=[N-])[C@@H](CO)O2)c(=O)[nH]c1=O` [AZT, azidothymidine] the “TI (TC50/TC50)” value (HIV-1 isolate NL4-3) was greater than 100, the “TI (TC50/TC50)” value (HIV-1 isolate A17) was greater than 86.0 and the “TI (TC50/TC50)” value [1] was greater than 90.1. The “TI (TC50/TC50)” value (HIV-1 isolate 4736_4) was greater than 389 and the “TI (TC50/TC50)” value (HIV-1 isolate MDR807) was greater than 6.17.

In the case of `CC(C)Nc1cccnc1N1CCN(C(=O)c2cc3cc(NS(C)(=O)=O)ccc3[nH]2)CC1` [Delavirdine], the “TI (TC50/TC50)” value (HIV-1 isolate NL4-3) is reported as greater than 65.5.

In the case of enfuvirtide, the “TI (TC50/TC50)” value (HIV-1 isolate NL4-3) is reported as greater than 15.0 and the “TI (TC50/TC50)” value [1] is reported as greater than 3.10.

`Cc1nnc(C(=O)NC(C)(C)c2nc(C(=O)NCc3ccc(F)cc3)c(O)c(=O)n2C)o1` [Raltegravir, raltegravir] was tested, and the “TI (TC50/TC50)” value (HIV-1 isolate MDR769) was 27.4, the “TI (TC50/TC50)” value (HIV-1 isolate NL4-3) was greater than 77.0 and the “TI (TC50/TC50)” value (HIV-1 isolate 4736_4) was greater than 1.34. The “TI (TC50/TC50)” value (HIV-1 isolate MDR807) was greater than 219.

For `CC(C)c1nc(CN(C)C(=O)N[C@H](C(=O)N[C@@H](Cc2ccccc2)C[C@H](O)[C@H](Cc2ccccc2)NC(=O)OCc2cncs2)C(C)C)cs1` [Ritonavir, ritonavir], the “TI (TC50/TC50)” value (HIV-1 isolate NL4-3) was greater than 220 and the “TI (TC50/TC50)” value (HIV-1 isolate MDR807) was greater than 7.81.

`NCC(=O)Nc1ccc(-n2nc(C(F)(F)F)cc2-c2ccc3c(ccc4ccccc43)c2)cc1` [AR-12, 2-amino-N-(4-(5-(phenanthren-2-yl)-3-(trifluoromethyl)-1H-pyrazol-1-yl)phenyl)acetamide] was tested, and the “TI (TC50/TC50)” value (HIV-1 isolate MDR769) was 6.53, the “TI (TC50/TC50)” value (HIV-1 isolate NL4-3; NL4-3 in PBMCs) was 7.39 and the “TI (TC50/TC50)” value (HIV-1 isolate A17) was 6.05. The “TI (TC50/TC50)” value [1] was 5.45, the “TI (TC50/TC50)” value (HIV-1 isolate 4736_4) was 7.26 and the “TI (TC50/TC50)” value (HIV-1 isolate MDR807; MDR807 in PBMCs) was 6.12. The “TI (TC50/TC50)” value (HIV-1 isolate 1022-48) was 11.3.

`Cc1ccnc2c1NC(=O)c1cccnc1N2C1CC1` [Nevirapine] was tested, and the “TI (TC50/TC50)” value (HIV-1 isolate NL4-3) was greater than 133 and the “TI (TC50/TC50)” value (HIV-1 isolate 1022-48) was 142.
